# Measurements from the supplement of paper PMC12637763.
# Some of the results follow. Env chains of viruses from a treatment-interruption trial, translated from the printed DNA. IC50 / IC80 of two broadly neutralizing antibodies; lower = more sensitive virus; >50 µg/ml means not reached and <0.001 µg/ml is below the lowest dose. No active / inactive call.
# B1: HIV-1 Env, rebound clone, antibody arm (protein)
# chain: MRVREIRRNYLWRWGTLLLGILMMICSADNWWVTVYYGVPVWKEATTTLFCASDAKAYETEVHNVWATHACVPTDPNPQEVALENVTENFNMWKNNMVEQMQEDIISLWDQSLKPCVELTPLCVTLNCTNVNNTRTNSTISGPTAKPGEEEMKNCSFNITTGIRDKIKKEYALFYKLDVVPIDDSNTSYRLISCNTSVIKQACPKVSFEPIPIHYCAPAGFAILKCRDKQFNGTGPCRNVSTVQCTHGIKPVVTTQLLLNGSLAEEEVVIRSANFSDNAKIIIVQLNESVQINCTRPNNNTRKSIPIGPGRAFYATGDIIGDIRQAHCDISKTRWNNTLKLIREKLKTQFGDKTIVFNQSSGGDPEIVTHSFNCGGEFFYCNTTPLFNSTEGSNTTAENNTTDIITLQCRIKQIINMWQKVGKAMYAPPIRGNISCSSNITGLLLTRDGGNTTDNGSEIFRPGGGDMRDNWRSELYKYKVVKIEPIGLAPTKAKRRVVQREKRALGMGALFLGFLGAAGSTMGAASVTLTVQARQLLSGIVQQQNNLLRAIEAQQHLLQLTVWGIKQLQARVLAVESYLRDQQLLGIWGCSGKLICTTAVPWNISWSKSKSWNKTNLADIWENMTWMQWESEIDNYTNIIYQLIEESQNQQEKNEKDLLELDKWASLWNWFSISNWLWYIKLFIMIVGGLIGLRIIFSVLSIVNRVRQGYSPLSFQTRPPAARGHDRPERIEEGGGDRDRDRSNQLVDGFLALIWVDLRSLCLFSYHRLRDFLLVVTRIVELLGRRGWEILKYWWNLLQYWSQELKNSAVSLLNATAIAVAEGTDRVIEIVQRAFRAIIHIPTRIRQGFERALL
# B2: HIV-1 Env, rebound clone, antibody arm (protein)
# chain: MRVREIRRNYLWRWGTLLLGILMMICSADNWWVTVYYGVPVWKEATTTLFCASDAKAYETEVHNVWATHACVPTDPNPQEVALENVTENFNMWKNNMVEQMQEDIISLWDQSLKPCVELTPLCVTLNCTNVNNTRTNSTISGPTAKPGEEEMKNCSFNITTGIRDKIKKEYALFYKLDVVPIDDSNTSYRLISCNTSVIKQACPKVSFEPIPIHYCAPAGFAILKCRDKQFNGTGPCRNVSTVQCTHGIKPVVTTQLLLNGSLAEEEVVIRSANFSDNAKIIIVQLNESVQINCTRPNNNTRKSIPIGPGRAFYATGDIIGDIRQAHCDISKTRWNNTLKLIREKLKTQFGDKTIVFNQSSGGDPEIVTHSFNCGGEFFYCNTTPLFNSTEGSNTTAENNTTDIITLQCRIKQIINMWQKVGKAMYAPPIRGNISCSSNITGLLLTRDGGNTTDNGSEIFRPGGGDMRDNWRSELYKYKVVKIEPIGLAPTKAKRRVVQREKRALGMGALFLGFLGAAGSTMGAASVTLTVQARQLLSGIVQQQNNLLRAIEAQQHLLQLTVWGIKQLQARVLAVESYQRDQQLLGIWGCSGKLICTTAVPWNISWSKSKSWNKTNLADIWENMTWMQWESEIDNYTNIIYQLIEESQNQQEKNEKDLLELDKWASLWNWFSISNWLWYIKLFIMIVGGLIGLRIIFSVLSIVNRVRQGYSPLSFQTRPPAARGHDRPEGIEEGGGDRDRDRSNQLVDGFLALIWVDLRSLCLFSYHRLRDFLLVVTRIVELLGRRGWEILKYWWNLLQYWSQELKNSAVSLLNATAIAVAEGTDRVIEIVQRAFRAIIHIPTRIRQGFERALL
# B3: HIV-1 Env, rebound clone, antibody arm (protein)
# chain: MRVREIRRNYLWRWGTLLLGILMMICSADNWWVTVYYGVPVWKEATTTLFCASDAKAYETEVHNVWATHACVPTDPNPQEVALENVTENFNMWKNNMVEQMQEDIISLWDQSLKPCVELTPLCVTLNCTNVNNTRTNSTISGPTAKPGEEEMKNCSFNITTGIRDKIKKEYALFYKLDVVPIDDSNTSYRLISCNTSVIKQACPKVSFEPIPIHYCAPAGFAILKCRDKQFNGTGPCRNVSTVQCTHGIKPVVTTQLLLNGSLAEEEVVIRSANFSDNAKIIIVQLNESVQINCTRPNNNTRKSIPIGPGRAFYATGDIIGDIRQAHCDISKTRWNNTLKLIREKLKTQFGDKTIVFNQSSGGDPEIVTHSFNCGGEFFYCNTTPLFNSTEGSNTTAENNTTDIITLQCRIKQIINMWQKVGKAMYAPPIRGNISCSSNITGLLLTRDGGNTTDNGSEIFRPGGGDMRDNWRSELYKYKVVKIEPIGLAPTKAKRRVVQREKRALGMGALFLGFLGAAGSTMGAASVTLTVQARQLLSGIVQQQNNLLRAIEAQQHLLQLTVWGIKQLQARVLAVESYLRDQQLLGIWGCSGKLICTTAVPWNISWSKSKSWNKTNLADIWENMTWMQWESEIDNYTNIIYQLIEESQNQQEKNEKDLLELDKWASLWNWFSISNWLWYIKLFIMIVGGLIGLRIIFSVLSIVNRVRQGYSPLSFQTRPPAARGHDRPEGIEEGGGNRDRDRSNQLVDGFLALIWVDLRSLCLFSYHRLRDFLLVVTRIVELLGRRGWEILKYWWNLLQYWSQELKNSAVSLLNATAIAVAEGTDRVIEIVQRAFRAIIHIPTRIRQGFERALL
# Target: antibody 10-1074
# Test: neutralization IC50; higher = virus less sensitive to the antibody
# Description: (§1)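 Pseudovirus bearing the Env chain mixed with antibody, from 50 µg/ml in fivefold dilutions, on TZM-bl reporter cells, in duplicate.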
row,Binder,neutralization IC50 [µg/mL]
1,B1,> 50
2,B2,> 50
3,B3,> 50

# Target: antibody 3BNC117
# Test: as above
# Description: as §1
row,Binder,neutralization IC50 [µg/mL]
1,B1,0.186
2,B2,0.119
3,B3,0.233

# Target: antibody 10-1074
# Test: neutralization IC80; higher = virus less sensitive to the antibody
# Description: as §1
row,Binder,neutralization IC80 [µg/mL]
1,B1,> 50
2,B2,> 50
3,B3,> 50

# Target: antibody 3BNC117
# Test: as above
# Description: as §1
row,Binder,neutralization IC80 [µg/mL]
1,B1,0.78
2,B2,0.446
3,B3,0.79
